# Measured values published in article PMC11998009, “Identification of a New FtsZ Inhibitor by Virtual Screening, Mechanistic Insights, and Structure–Activity Relationship Analyses” (ACS Infectious Diseases, 2025).
# Sequences of proteins named here, by UniProt entry; tags and fusion partners are left off.
# UniProt P0A031, whole entry: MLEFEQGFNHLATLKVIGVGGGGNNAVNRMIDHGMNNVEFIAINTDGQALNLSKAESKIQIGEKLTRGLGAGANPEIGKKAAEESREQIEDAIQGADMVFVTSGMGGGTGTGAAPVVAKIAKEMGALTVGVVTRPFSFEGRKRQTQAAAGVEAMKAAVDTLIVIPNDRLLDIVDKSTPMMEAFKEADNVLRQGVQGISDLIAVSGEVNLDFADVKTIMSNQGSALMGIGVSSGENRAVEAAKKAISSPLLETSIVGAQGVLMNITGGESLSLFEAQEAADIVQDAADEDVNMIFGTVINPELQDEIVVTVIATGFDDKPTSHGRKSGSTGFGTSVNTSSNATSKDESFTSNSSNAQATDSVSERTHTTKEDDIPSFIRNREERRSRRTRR
# The structures given here were assigned with low confidence; some may be wrong.
# Assays:
# S. aureus ATCC25923 = assay: MIC determination by 2-fold microdilution, resazurin method; format: cell-based, Staphylococcus aureus; conditions: S. aureus ATCC25923, single drug
# [1] = target: S. aureus FtsZ protein (FtsZSa) (Staphylococcus aureus, UniProt P0A031); assay: In vitro FtsZ GTPase activity (PK/LDH coupled assay); format: biochemical; conditions: read-out: IC50 (GTPase activity)
structure (smiles),measurement,setting,value
Cn1cccc1-c1noc(CNC(=O)c2ccc(=O)[nH]c2)n1,MIC S. aureus,S. aureus ATCC25923,≥ 256 µg/mL
same,IC50,[1],14.6 µM
